In publication PMC10852988 one finds Kd data, which are given here for one substance.

pKd: −log10 of the molar value.

Among the targets are CB6; CR3022; P2B-2F6; S309.
Common to all, as to experiment: SPR
Holding throughout (conditions): domain or fragment

Consider “HEK293 RBD (recombinant SARS-CoV-2 spike receptor-binding domain, Arg319–Lys537 with His Tag) (from UniProt P0DTC2 319-537)”, for which the pKd with CB6 is 7.62; with CR3022 it was 8.02; with P2B-2F6, 7.44; with S309 it was 12.96.
